Results of unrelated studies side by side (data: NIAID ChemDB).

Shared fields: cytotoxicity tests; cell line: PBMC; method: MTT; measure: CC50

Rows are shuffled and stem from different studies. CCn is the concentration with n% toxicity to the cells.

smiles	result
O=c1ccn([C@H]2C[C@@H](CO)C=C2F)c(=O)[nH]1	>100 µM
CCOC(=O)[C@H](C)NP(=O)(OC[C@@H]1OC[C@H](n2cnc3c(NC4CC4)nc(N)nc32)O1)Oc1ccccc1	>100 µM
COc1ccc(C(=O)/C=C/c2cc3ccc(Cl)c(C)c3nc2Cl)cc1	50.5 µM
O=C(O)CCN(CCN(CC(=O)O)Cc1cnc2c(O)cccc2c1)CC(=O)O	>50 µM
Nc1ccn([C@@H]2CS[C@H](CO)O2)c(=O)n1	>1000 µM
CC[C@]1(OCP(=O)(O)O)C[C@@H](n2cnc3c(N)ncnc32)C=C1F	≥10 µM
NCC(NC(=O)c1ccc(-c2cc(F)c(Cl)c(F)c2)[nH]1)c1nc(CO)cs1	7.6 µM
Cn1c2c(c(=O)n(C)c1=O)S[C@@H]1[C@H](O2)O[C@H](COc2ccccc2)[C@@H](OCc2ccccc2)[C@@H]1OCc1ccccc1	>100 µM
O=C(O)[C@H]1O[C@@H](Oc2cc3oc(-c4ccc(O)cc4)cc(=O)c3c(O)c2O)[C@H](O)[C@@H](O)[C@@H]1O	336 µM
C[C@H]1[C@H](O)[C@@H](C)/C=C/C=C/C=C/C=C/C=C/C=C/C=C/[C@H](O[C@@H]2O[C@H](C)[C@@H](O)[C@H](N)[C@@H]2O)C[C@@H]2O[C@](O)(C[C@@H](O)C[C@@H](O)CC[C@H](O)[C@@H](O)C[C@@H](O)CC(=O)O[C@H]1C)C[C@H](O)[C@H]2C(=O)O	>25 µM
COC(=O)[C@H](C)NP(=O)(OC[C@@H]1OC[C@H](n2cc(C)c(=O)[nH]c2=O)O1)Oc1cccc2ccccc12	>100 µM
O=C(O)c1cc(O)c(O)c(O)c1	825 µM
CCCCCCCCCCCCCCCCOCCCOP(=O)(N[C@@H](C)C(=O)OC)OC[C@@H]1OC[C@H](n2cc(C)c(=O)[nH]c2=O)O1	19.7 µM
Nc1ccn([C@@H]2C[C@H](CO)C=C2F)c(=O)n1	>100 µM
O=C(O)CCC(CCC(=O)O)(CCC(=O)O)NC(=O)CCC(CCC(=O)NC(CCC(=O)O)(CCC(=O)O)CCC(=O)O)(CCC(=O)NC(CCC(=O)O)(CCC(=O)O)CCC(=O)O)NC(=O)CCCOC(=O)C1(C(=O)OCCCC(=O)NC(CCC(=O)NC(CCC(=O)O)(CCC(=O)O)CCC(=O)O)(CCC(=O)NC(CCC(=O)O)(CCC(=O)O)CCC(=O)O)CCC(=O)NC(CCC(=O)O)(CCC(=O)O)CCC(=O)O)C2c3cc4c5c6c3-c3c(cc7c8c3C6C3c6c-5c(cc5ccc9cc(c-8c3c9c65)C7)C4)C21	>100 µM
Cc1csc(/C=C/c2cc3ccc(Cl)c(C)c3nc2Cl)c1	55.99 µM
COc1ccnc2[nH]cc(C(=O)C(=O)N3CCN(C(=O)c4ccccc4)C[C@H]3C)c12	0.04 µM
COc1ccc(/C=C/c2cc(Cl)c3cc(Cl)ccc3n2)c(OC)c1	5.34 µM
CC(=O)O[C@@H]1[C@@H](OC(C)=O)[C@H](C)O[C@@H]2Oc3c(c(=O)n(C)c(=O)n3C)S[C@@H]21	46.2 µM
Cc1cc2ccccc2c(-c2ccc3c4c(ccnc24)CCO3)c1[C@H](OC(C)(C)C)C(=O)O	>90 µM
C/C(=N\NC(=O)c1ccc(Cl)cc1)c1cccc(/C(C)=N/NC(=O)c2ccc(Cl)cc2)n1	>100 µM
CCCCCCCCCCCCCCCCCCOC(=O)c1cc(O)c(O)c(O)c1	1145 µM
O=C(O)[C@H]1O[C@@H](Oc2ccc(/C=C/c3cc(O)cc(O)c3)cc2)[C@H](O)[C@@H](O)[C@@H]1O	>300 µM
Cc1cc(C#N)cc(C)c1Oc1nc(Nc2ccc(C#N)cc2)nc(N)c1Br	25.12 µM
COC(=O)[C@H](C)NP(=O)(OC[C@@H]1OC[C@H](n2cc(C)c(=O)[nH]c2=O)O1)Oc1ccc(CC(C)(C)C)cc1	15.4 µM
Nc1nc2c(ncn2[C@H]2C[C@@H](CO)C=C2F)c(=O)[nH]1	>100 µM
CCCCC#CCS(=O)(=O)c1ccccc1OC(C)=O	345 µM
Cc1cc(C)c(Nc2nc(Cl)nc(Nc3ccc(C#N)nc3)n2)c(C)c1	46 µg/mL
Nc1nc2c(ncn2[C@@H]2C[C@H](CO)C=C2F)c(=O)[nH]1	>100 µM
COC(=O)[C@H](C)NP(=O)(OC[C@@H]1OC[C@H](n2cc(C)c(=O)[nH]c2=O)O1)Oc1ccccc1	>100 µM
CC#C[C@]1(O)CC[C@H]2[C@@H]3CCC4=CC(=O)CCC4=C3[C@@H](c3ccc(N(C)C)cc3)C[C@@]21C	36 µM
CCCCCCCS(=O)(=O)c1ccccc1OC(C)=O	205 µM
Nc1nc2c(ncn2[C@H]2CO[C@@H](CO)O2)c(=O)[nH]1	>100 µM
Nc1ccn([C@H]2CO[C@@H](CO)S2)c(=O)n1	520 µM
CCCCCCCCCCCCCCCCOC(=O)c1cc(O)c(O)c(O)c1	1720 µM
S=C(NCCN1CCNCC1)Nc1ccc(Br)cn1	>100 µM
Cc1cn([C@H]2CO[C@@H](COP(=O)(N[C@@H](C)C(=O)OCc3ccccc3)Oc3ccc(Br)cc3)O2)c(=O)[nH]c1=O	>100 µM
Nc1nc(NC2CC2)c2ncn([C@H]3CO[C@@H](CO)O3)c2n1	>250 µM
CCCCC#CCSc1ccccc1OC(C)=O	105 µM
O=c1ccn([C@H]2C=C[C@@H](CO)O2)c(=O)n1CCCCCCN1CCN(CCNC(=S)Nc2ccc(Br)cn2)CC1	98 µM
COc1ccc2ccc3c(c2c1)OC1(CCN(Cc2ccc(C#N)cc2)CC1)NC3=O	1.2 µM
Cc1cn([C@H]2CO[C@@H](COP(=O)(N[C@@H](C)C(=O)OC(C)(C)C)Oc3ccccc3)O2)c(=O)[nH]c1=O	>100 µM
CCOC(=O)[C@H](C)NP(=O)(OC[C@@H]1OC[C@H](n2cnc3c(N)nc(N)nc32)O1)Oc1ccccc1	66.5 µM
COc1cccc2ccc(/C=C/C(=O)Nc3ccccc3F)nc12	9.56 µM
CC(=O)O[C@H]1[C@@H](OC(C)=O)[C@@H](CO[Si](c2ccccc2)(c2ccccc2)C(C)(C)C)O[C@@H](O[C@H]2[C@H](OC(C)=O)[C@H]3Sc4c(n(C)c(=O)n(C)c4=O)O[C@H]3O[C@@H]2CO[Si](c2ccccc2)(c2ccccc2)C(C)(C)C)[C@@H]1OC(C)=O	100 µM
COc1ccc2[nH]c(=O)c(CN(Cc3cccnc3)S(=O)(=O)c3cccc4nsnc34)cc2c1	6.8 µM
CCCCOC(=O)c1cc(O)c(O)c(O)c1	1460 µM
COC(=O)C(C)(C)NP(=O)(OC[C@@H]1OC[C@H](n2cc(C)c(=O)[nH]c2=O)O1)Oc1cccc2ccccc12	>100 µM
Cn1c2c(c(=O)n(C)c1=O)S[C@H]1[C@@H](O2)O[C@H](CO)[C@@H](O)[C@@H]1O	>100 µM
CCCCCCOC(=O)c1cc(O)c(O)c(O)c1	1580 µM
Cc1c(Cl)ccc2cc(/C=C/C(=O)c3ccccc3Br)c(Cl)nc12	20.01 µM

The first 4 rows once more:

smiles,result
O=c1ccn([C@H]2C[C@@H](CO)C=C2F)c(=O)[nH]1,>100 µM
CCOC(=O)[C@H](C)NP(=O)(OC[C@@H]1OC[C@H](n2cnc3c(NC4CC4)nc(N)nc32)O1)Oc1ccccc1,>100 µM
COc1ccc(C(=O)/C=C/c2cc3ccc(Cl)c(C)c3nc2Cl)cc1,50.5 µM
O=C(O)CCN(CCN(CC(=O)O)Cc1cnc2c(O)cccc2c1)CC(=O)O,>50 µM